Results of unrelated studies side by side (data: NIAID ChemDB).

Common to all: tests in culture; species: HIV-1

Fold resistance has wild type as its base.

O=C1Nc2ccc(Cl)cc2[C@@](/C=C/C2CC2)(C(F)(F)F)N1 ; changes: RT-G190S ; measure: EC90 ; value: ~0.12 µM
Cc1cc(C)cc(C(=O)c2cc(Cl)ccc2OCC(=O)Nc2ccc(S(N)(=O)=O)cc2C)c1 ; changes: RT-V108I ; strain: HXB2 ; cells: HeLa + HELA CD4+ ; method: β-galactosidase ; measure: fold resistance ; value: ~1
CC(C)C1=C2[C@H]3CC[C@@H]4[C@@]5(C)CC[C@H](OC(=O)[C@H]6C[C@@H](C(=O)O)C6(C)C)C(C)(C)[C@@H]5CC[C@@]4(C)[C@]3(C)CC[C@@]2([C@@H](O)CNC(=O)C(C)(C)NC(=O)c2ccc(F)cc2)CC1=O ; strain: 92HT599 ; cells: MT-2 ; method: p24 / ELISA ; measure: EC50 ; value: <1 µM
CNC(=O)c1cc(F)ccc1CNC(=O)c1nc2n(c(=O)c1O)CCN(C)C2(C)C ; cells: MT-4 ; method: p24 ; measure: EC95 ; value: <1 µM
O=C1Nc2ccc(F)c(F)c2[C@@](C#CC2CC2)(C(F)(F)F)N1 ; changes: RT-G190S ; measure: EC90 ; value: ~0.053 µM
Cc1cc(S(N)(=O)=O)ccc1NC(=O)COc1ccc(Cl)cc1C(=O)c1cccc(C#N)n1 ; changes: RT-L100I ; strain: HXB2 ; cells: HeLa + HELA CD4+ ; method: β-galactosidase ; measure: fold resistance ; value: ~1
CC(C)C1=C2[C@H]3CC[C@@H]4[C@@]5(C)CC[C@H](OC(=O)[C@H]6C[C@@H](C(=O)O)C6(C)C)C(C)(C)[C@@H]5CC[C@@]4(C)[C@]3(C)CC[C@@]2(CCNCc2csc(N)n2)CC1=O ; strain: 92HT599 ; cells: MT-2 ; method: p24 / ELISA ; measure: EC50 ; value: <1 µM
COc1ccnc2[nH]cc(C(=O)C(=O)N3C4CCCC3CN(C(=O)c3ccccc3)C4)c12 ; strain: ZM214 ; cells: TZM-bl ; method: luciferase ; measure: EC99 ; value: 89 µM
CN(C)C(=O)C(=O)N(C)C1CN(Cc2ccccc2)CCn2c1nc(C(=O)NCc1ccc(F)cc1)c(O)c2=O ; cells: MT-4 ; method: p24 ; measure: EC95 ; value: <1 µM
CC(C)CN(C[C@@H](O)CN(CCc1ccccc1)C(=O)O[C@H]1CCOC1)S(=O)(=O)c1cccc(N)c1 ; strain: IIIB ; cells: CEM ; method: p24 ; measure: EC90 ; value: 0.1 µM
Cc1noc(C)c1C(=O)NC[C@H](O)[C@@]12CC[C@]3(C)[C@H](CC[C@@H]4[C@@]5(C)CC[C@H](OC(=O)[C@H]6C[C@@H](C(=O)O)C6(C)C)C(C)(C)[C@@H]5CC[C@]43C)C1=C(C(C)C)C(=O)C2 ; strain: 92HT599 ; cells: MT-2 ; method: p24 / ELISA ; measure: EC50 ; value: <1 µM
Cc1cc(S(N)(=O)=O)ccc1NC(=O)COc1ccc(Cl)cc1C(=O)c1cc(F)cc(F)c1 ; changes: RT-Y181C ; strain: HXB2 ; cells: HeLa + HELA CD4+ ; method: β-galactosidase ; measure: fold resistance ; value: ~1
CC(C)C1=C2[C@H]3CC[C@@H]4[C@@]5(C)CC[C@H](OC(=O)[C@H]6C[C@@H](C(=O)O)C6(C)C)C(C)(C)[C@@H]5CC[C@@]4(C)[C@]3(C)CC[C@@]2([C@@H](O)CNC[C@@H](CO)NC(=O)c2ccc(Cl)cc2)CC1=O ; strain: 92HT599 ; cells: MT-2 ; method: p24 / ELISA ; measure: EC50 ; value: <1 µM
Cc1cc2cn[nH]c2cc1NC(=O)COc1ccc(Cl)cc1C(=O)c1cccc(C#N)c1 ; changes: RT-V106A Y181C ; strain: HXB2 ; cells: HeLa + HELA CD4+ ; method: β-galactosidase ; measure: fold resistance ; value: ~10
COc1ccc(S(=O)(=O)N(CC(C)C)C[C@@H](O)CCN(CC2CCCC2)S(=O)(=O)CC2COCO2)cc1 ; strain: IIIB ; cells: CEM ; method: p24 ; measure: EC90 ; value: 1 µM
O=C(O)c1cc(-n2cccc2)ccc1Cl ; strain: 93BR020 X4R5 CLADE F ; cells: PBMC/5.25M7 ; method: luciferase / cell fusion ; measure: EC90 ; value: 20.32 µM
CC(C)C1=C2[C@H]3CC[C@@H]4[C@@]5(C)CC[C@H](OC(=O)[C@H]6C[C@@H](C(=O)O)C6(C)C)C(C)(C)[C@@H]5CC[C@@]4(C)[C@]3(C)CC[C@@]2(CC(=O)NCC(C)(C)NC(=O)c2cc(C(C)C)[nH]n2)CC1=O ; strain: 92HT599 ; cells: MT-2 ; method: p24 / ELISA ; measure: EC50 ; value: <1 µM
COc1ccc(S(=O)(=O)N(CC(C)C)C[C@@H](O)CCN(CC2CCCC2)S(=O)(=O)c2cc(C(C)(C)C)cc3[nH]cnc23)cc1 ; strain: IIIB ; cells: CEM ; method: p24 ; measure: EC90 ; value: 1 µM
Cc1cc(S(N)(=O)=O)ccc1NC(=O)COc1ccc(Cl)cc1C(=O)c1cc(F)cc(C(F)(F)F)c1 ; changes: RT-G190E ; strain: HXB2 ; cells: HeLa + HELA CD4+ ; method: β-galactosidase ; measure: EC50 ; value: <0.01 µM
COc1ccnc2[nH]cc(C(=O)C(=O)N3C4CC3CN(C(=O)c3ccccc3)C4)c12 ; strain: 6535 ; cells: TZM-bl ; method: luciferase ; measure: EC99 ; value: >>250 µM
CC1(C)c2nc(C(=O)NCc3ccc(F)cc3)c(O)c(=O)n2CCN1CC#N ; cells: MT-4 ; method: p24 ; measure: EC95 ; value: <1 µM
Cc1nnc(CN(CCN(C)C)C(=O)C[C@@]23CC[C@]4(C)[C@H](CC[C@@H]5[C@@]6(C)CC[C@H](OC(=O)[C@H]7C[C@@H](C(=O)O)C7(C)C)C(C)(C)[C@@H]6CC[C@]54C)C2=C(C(C)C)C(=O)C3)o1 ; strain: 92HT599 ; cells: MT-2 ; method: p24 / ELISA ; measure: EC50 ; value: <1 µM
CN(CC1c2nc(C(=O)NCc3ccc(F)cc3)c(O)c(=O)n2CCN1C)C(=O)c1cccc[n+]1[O-] ; cells: MT-4 ; method: p24 ; measure: EC95 ; value: 1–10 µM
CC(C)C1=C2[C@H]3CC[C@@H]4[C@@]5(C)CC[C@H](OC(=O)[C@H]6C[C@@H](C(=O)O)C6(C)C)C(C)(C)[C@@H]5CC[C@@]4(C)[C@]3(C)CC[C@@]2([C@@H](O)CNC(=O)[C@@H](NC(=O)c2ccc(Cl)cc2)C(C)O)CC1=O ; strain: 92HT599 ; cells: MT-2 ; method: p24 / ELISA ; measure: EC50 ; value: <1 µM
Cc1cc(S(N)(=O)=O)ccc1NC(=O)COc1ccc(Cl)cc1C(=O)c1cc(Cl)cc(C#N)c1 ; changes: RT-K103N P225H ; strain: HXB2 ; cells: HeLa + HELA CD4+ ; method: β-galactosidase ; measure: fold resistance ; value: ~1
CC(C)C1=C2[C@H]3CC[C@@H]4[C@@]5(C)CC[C@H](OC(=O)[C@H]6C[C@@H](C(=O)O)C6(C)C)C(C)(C)[C@@H]5CC[C@@]4(C)[C@]3(C)CC[C@@]2(CCNCC(C)(C)NC(=O)c2ccc(Cl)cc2O[C@H]2CCOC2)CC1=O ; strain: 92HT599 ; cells: MT-2 ; method: p24 / ELISA ; measure: EC50 ; value: <1 µM
Cc1cc(S(N)(=O)=O)ccc1NC(=O)COc1ccc(Cl)cc1C(=O)c1cccc(C#N)c1 ; changes: RT-P236L ; strain: HXB2 ; cells: HeLa + HELA CD4+ ; method: β-galactosidase ; measure: fold resistance ; value: ~10
COc1ccc(S(=O)(=O)N(CC(C)C)C[C@@H](O)CCN(CC2CCCC2)S(=O)(=O)Cc2cc(C(C)(C)C)on2)cc1 ; strain: IIIB ; cells: CEM ; method: p24 ; measure: EC90 ; value: 1 µM
CN(CC1c2nc(C(=O)NCc3ccc(F)cc3)c(O)c(=O)n2CCN1C)C(=O)c1ccccn1 ; cells: MT-4 ; method: p24 ; measure: EC95 ; value: 1–10 µM
O=C(COc1ccc(Cl)cc1C(=O)c1ccccc1)Nc1ccc(-n2cncn2)cc1 ; changes: RT-K103N ; strain: HXB2 ; cells: HeLa + HELA CD4+ ; method: β-galactosidase ; measure: fold resistance ; value: ~1

The last 3 rows once more:

smiles | changes | strain | cells | method | measure | value
COc1ccc(S(=O)(=O)N(CC(C)C)C[C@@H](O)CCN(CC2CCCC2)S(=O)(=O)Cc2cc(C(C)(C)C)on2)cc1 | - | IIIB | CEM | p24 | EC90 | 1 µM
CN(CC1c2nc(C(=O)NCc3ccc(F)cc3)c(O)c(=O)n2CCN1C)C(=O)c1ccccn1 | - | - | MT-4 | p24 | EC95 | 1–10 µM
O=C(COc1ccc(Cl)cc1C(=O)c1ccccc1)Nc1ccc(-n2cncn2)cc1 | RT-K103N | HXB2 | HeLa + HELA CD4+ | β-galactosidase | fold resistance | ~1

Neighbouring rows are from separate reports. An empty or dashed field is not shown. ECn: concentration that inhibits the pathogen or its effect by n%. a–b is a range or a potency band.